{"source": "patent US8912343B2", "about": "“Solid forms of (1r,4r)-6′-fluoro-(N, N-dimethyl)-4-phenyl-4′,9′-dihydro-3′H-spiro[cyclohexane-1,1′-pyrano-[3,4,b]indol]-4-amine and sulfuric acid” (dated 2014)", "assay": "Physical and chemical stability (storage, purity by HPLC, PXRD)", "data": [{"substance": "(1r,4r)-6′-fluoro-N,N-dimethyl-4-phenyl-4′,9′-dihydro-3′H-spiro[cyclohexane-1,1′-pyrano[3,4,b]indol]-4-amine sulfate", "values": [{"measurement": "Purity after 1 week at 80° C.", "setting": "closed vials", "value": 99.8, "unit": "area %"}, {"measurement": "Purity after 4 weeks at 40° C., 75% r.h.", "setting": "open vials", "value": 99.7, "unit": "area %"}, {"measurement": "Ref. Purity", "setting": "reference, before storage", "value": 100.0, "unit": "area %"}]}]}
